The subject of the data set is DENV-2 16681 strain. The experiment in a line: DENV-2 antiviral assay (eGFP-labeled virus in Vero cells). The format is cell-based, Dengue virus. Particulars: SI=CC50/EC50, DENV-2 antiviral assay. How it is done: The antiviral activity of all the compounds of the invention was tested against the DENV-2 16681 strain which was labeled with enhanced green fluorescent protein (eGPF). The culture medium consists of minimal essential medium supplemented with 2% of heat-inactivated fetal calf serum, 0.04% gentamycin (50 mg/mL) and 2 mM of L-glutamine. Vero cells, obtained from ECACC, were suspended in culture medium and 25 μL was added to 384-well plates (2500 cells/well), which already contain the antiviral compounds. Typically, these plates contain a 5-fold serial dilution of 9 dilution steps of the test compound at 200 times the final concentration in 100% DMSO (200 nL). […] Finally, each plate contains wells which are assigned as virus controls (containing cells and virus in the absence of compound), cell controls (containing cells in the absence of virus and compound) and medium controls (containing medium in the absence of cells, virus and compounds). To the wells assigned as medium control, 25 μL of culture medium was added instead of Vero cells. Once the cells were added to the plates, the plates were incubated for 30 minutes at room temperature to allow the cells to distribute evenly within the wells. Next, the plates were incubated in a fully humidified incubator (37° C., 5% CO2) until the next day. Then, DENV-2 strain 16681, labeled with eGFP, was added at a multiplicity of infection (MOI) of 0.5. Therefore, 15 μL of virus suspension was added to all the wells containing test compound and to the wells assigned as virus control. In parallel, 15 μL of culture medium was added to the medium and cell controls. Next, the plates were incubated for 3 days in a fully humidified incubator (37° C., 5% CO2). At the day of the read out, the eGFP fluorescence was measured using an automated fluorescence microscope at 488 nm (blue laser). Using an in-house LIMS system, inhibition dose response curves for each compound were calculated and the half maximal effective concentration (EC50) was determined. Therefore, the percent inhibition (I) for every test concentration is calculated using the following formula: I=100*([…])/(SVC−SCC); ST, SCC and SVC are the amount of eGFP signal in the test compound, cell control and virus control wells, respectively. The EC50 represents the concentration of a compound at which the virus replication is inhibited with 50%, as measured by a 50% reduction of the eGFP fluorescent intensity compared to the virus control. The EC50 is calculated using linear interpolation (Table 1).

On to `COc1cc(NC(C(=O)c2c[nH]c3ccc(OC(F)(F)F)cc23)c2ccc(F)cc2OC)cc(OCCO)c1` (single isomer, unassigned) [Compound 5A, 2-(4-fluoro-2-methoxyphenyl)-2-((3-(2-hydroxyethoxy)-5-methoxyphenyl)amino)-1-(5-(trifluoromethoxy)-1H-indol-3-yl)ethanone], for which the SI is 181.
Turning to `COc1cc(NC(C(=O)c2c[nH]c3c(C)cc(OC(F)(F)F)cc23)c2ccc(Cl)cc2OC)cc(OCCO)c1` (single isomer, unassigned) [Compound 16B, 2-(4-chloro-2-methoxyphenyl)-2-((3-(2-hydroxyethoxy)-5-methoxyphenyl)amino)-1-(7-methyl-5-(trifluoromethoxy)-1H-indol-3-yl)ethanone], the SI is 236.
The compound `COc1cc(NC(C(=O)c2c[nH]c3cc(OC)c(OC(F)(F)F)cc23)c2ccc(Cl)cc2OC)cc(OCCO)c1` (racemic) [Compound 14, 2-(4-chloro-2-methoxyphenyl)-2-((3-(2-hydroxyethoxy)-5-methoxyphenyl)amino)-1-(6-methoxy-5-(trifluoromethoxy)-1H-indol-3-yl)ethanone] yielded an SI above 8340.
The compound `COc1cc(NC(C(=O)c2c[nH]c3c(C)cc(OC(F)(F)F)cc23)c2ccc(F)cc2OC)cc(OCCO)c1` (racemic) [Compound 8, 2-(4-fluoro-2-methoxyphenyl)-2-((3-(2-hydroxyethoxy)-5-methoxyphenyl)amino)-1-(7-methyl-5-(trifluoromethoxy)-1H-indol-3-yl)ethanone] came in with an SI of 11800.
`COc1cc(NC(C(=O)c2c[nH]c3c(C)cc(C(F)(F)F)cc23)c2ccc(F)cc2OC)cc(OCCO)c1` (single isomer, unassigned) [Compound 4A, 2-(4-fluoro-2-methoxyphenyl)-2-((3-(2-hydroxyethoxy)-5-methoxyphenyl)amino)-1-(7-methyl-5-(trifluoromethyl)-1H-indol-3-yl)ethanone]: the SI is 172.
Take `COc1cc(NC(C(=O)c2c[nH]c3ccc(C(F)(F)F)cc23)c2ccc(Cl)cc2OC)cc(OCCO)c1` (single isomer, unassigned) [Compound 9A, 2-(4-chloro-2-methoxyphenyl)-2-((3-(2-hydroxyethoxy)-5-methoxyphenyl)amino)-1-(5-(trifluoromethyl)-1H-indol-3-yl)ethanone]: the SI is given as above 225.
For the compound `COc1cc(NC(C(=O)c2c[nH]c3cc(OC)c(OC(F)(F)F)cc23)c2ccc(F)cc2OC)cc(OCCO)c1` (racemic) [Compound 6, 2-(4-fluoro-2-methoxyphenyl)-2-((3-(2-hydroxyethoxy)-5-methoxyphenyl)amino)-1-(6-methoxy-5-(trifluoromethoxy)-1H-indol-3-yl)ethanone], the SI came out at 5560.
On to `COc1cc(NC(C(=O)c2c[nH]c3cc(OC)c(C(F)(F)F)cc23)c2ccc(Cl)cc2OC)cc(OCCO)c1` (racemic) [Compound 10, 2-(4-chloro-2-methoxyphenyl)-2-((3-(2-hydroxyethoxy)-5-methoxyphenyl)amino)-1-(6-methoxy-5-(trifluoromethyl)-1H-indol-3-yl)ethanone], for which the SI is above 9920.
In the case of `COc1cc(NC(C(=O)c2c[nH]c3cc(F)c(OC(F)(F)F)cc23)c2ccc(F)cc2OC)cc(OCCO)c1` (single isomer, unassigned) [Compound 7A, 2-(4-fluoro-2-methoxyphenyl)-1-(6-fluoro-5-(trifluoromethoxy)-1H-indol-3-yl)-2-((3-(2-hydroxyethoxy)-5-methoxyphenyl)amino)ethanone] it was 270.
As to `COc1cc(NC(C(=O)c2c[nH]c3cc(F)c(OC(F)(F)F)cc23)c2ccc(Cl)cc2OC)cc(OCCO)c1` (single isomer, unassigned) [Compound 15A, 2-(4-chloro-2-methoxyphenyl)-1-(6-fluoro-5-(trifluoromethoxy)-1H-indol-3-yl)-2-((3-(2-hydroxyethoxy)-5-methoxyphenyl)amino)ethanone], the SI was 386.
As to `COc1cc(NC(C(=O)c2c[nH]c3cc(F)c(C(F)(F)F)cc23)c2ccc(F)cc2OC)cc(OCCO)c1` (racemic) [Compound 3, 2-(4-fluoro-2-methoxyphenyl)-1-(6-fluoro-5-(trifluoromethyl)-1H-indol-3-yl)-2-((3-(2-hydroxyethoxy)-5-methoxyphenyl)amino)ethanone], the SI is recorded as 3220.
In the case of `COc1cc(NC(C(=O)c2c[nH]c3cc(F)c(C(F)(F)F)cc23)c2ccc(Cl)cc2OC)cc(OCCO)c1` (single isomer, unassigned) [Compound 11B, 2-(4-chloro-2-methoxyphenyl)-1-(6-fluoro-5-(trifluoromethyl)-1H-indol-3-yl)-2-((3-(2-hydroxyethoxy)-5-methoxyphenyl)amino)ethanone], the SI is 181.
As for `COc1cc(NC(C(=O)c2c[nH]c3cc(OC)c(OC(F)(F)F)cc23)c2ccc(Cl)cc2OC)cc(OCCO)c1` (single isomer, unassigned) [Compound 14B, 2-(4-chloro-2-methoxyphenyl)-2-((3-(2-hydroxyethoxy)-5-methoxyphenyl)amino)-1-(6-methoxy-5-(trifluoromethoxy)-1H-indol-3-yl)ethanone], the SI stood at 754.
On to `COc1cc(NC(C(=O)c2c[nH]c3ccc(C(F)(F)F)cc23)c2ccc(F)cc2OC)cc(OCCO)c1` (single isomer, unassigned) [Compound 1A, 2-(4-fluoro-2-methoxyphenyl)-2-((3-(2-hydroxyethoxy)-5-methoxyphenyl)amino)-1-(5-(trifluoromethyl)-1H-indol-3-yl)ethanone], for which the SI worked out at 106.
Next, `COc1cc(NC(C(=O)c2c[nH]c3cc(OC)c(C(F)(F)F)cc23)c2ccc(F)cc2OC)cc(OCCO)c1` (racemic) [Compound 2, 2-(4-fluoro-2-methoxyphenyl)-2-((3-(2-hydroxyethoxy)-5-methoxyphenyl)amino)-1-(6-methoxy-5-(trifluoromethyl)-1H-indol-3-yl)ethanone]: 6770.
`COc1cc(NC(C(=O)c2c[nH]c3cc(F)c(C(F)(F)F)cc23)c2ccc(F)cc2OC)cc(OCCO)c1` (single isomer, unassigned) [Compound 3B, 2-(4-fluoro-2-methoxyphenyl)-1-(6-fluoro-5-(trifluoromethyl)-1H-indol-3-yl)-2-((3-(2-hydroxyethoxy)-5-methoxyphenyl)amino)ethanone] registered an SI of 511.
In the case of `COc1cc(NC(C(=O)c2c[nH]c3cc(OC)c(C(F)(F)F)cc23)c2ccc(F)cc2OC)cc(OCCO)c1` (single isomer, unassigned) [Compound 2B, 2-(4-fluoro-2-methoxyphenyl)-2-((3-(2-hydroxyethoxy)-5-methoxyphenyl)amino)-1-(6-methoxy-5-(trifluoromethyl)-1H-indol-3-yl)ethanone] it was 287.
Compound `COc1cc(NC(C(=O)c2c[nH]c3cc(OC)c(OC(F)(F)F)cc23)c2ccc(F)cc2OC)cc(OCCO)c1` (single isomer, unassigned) [Compound 6B, 2-(4-fluoro-2-methoxyphenyl)-2-((3-(2-hydroxyethoxy)-5-methoxyphenyl)amino)-1-(6-methoxy-5-(trifluoromethoxy)-1H-indol-3-yl)ethanone] yielded an SI of 124.

Values taken from patent US10646469B2, “Substituted indole derivatives as dengue viral replication inhibitors” (Janssen Pharmaceuticals, Inc., priority 2016, dated 2020).
